This is an account of results in article PMC6943496, “Antiplasmodial Activity of Nitroaromatic Compounds: Correlation with Their Reduction Potential and Inhibitory Action on Plasmodium falciparum Glutathione Reductase” (Molecules, 2019).

Sequences of proteins named here, by UniProt entry; tags and fusion partners are left off. Residues count along the entry.
UniProt P00390, 44-522 limits assumed: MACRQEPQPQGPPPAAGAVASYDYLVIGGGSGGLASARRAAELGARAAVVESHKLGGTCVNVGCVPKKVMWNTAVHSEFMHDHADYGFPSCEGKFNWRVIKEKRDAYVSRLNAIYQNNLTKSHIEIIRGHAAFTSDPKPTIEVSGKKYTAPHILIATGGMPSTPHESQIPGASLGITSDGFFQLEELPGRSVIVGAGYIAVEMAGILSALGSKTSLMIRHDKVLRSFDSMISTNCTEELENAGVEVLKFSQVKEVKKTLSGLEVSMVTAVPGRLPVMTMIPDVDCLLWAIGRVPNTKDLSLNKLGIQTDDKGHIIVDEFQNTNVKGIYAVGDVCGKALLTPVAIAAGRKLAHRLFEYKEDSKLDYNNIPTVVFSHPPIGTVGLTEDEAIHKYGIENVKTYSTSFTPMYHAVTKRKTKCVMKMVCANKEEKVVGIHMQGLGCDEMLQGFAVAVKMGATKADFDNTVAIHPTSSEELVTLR

Structures are written as SMILES.

In one assay the target is P. falciparum glutathione reductase (PfGR) (Plasmodium falciparum, UniProt Q94655). Description: NADPH oxidation at […] nm, Cleland plot ([…]/kcat vs [I]). Conditions: read-out: Ki (μM) / PfGR ^a; 100 μM NADPH, varied GSSG (0.13-1.0 mM), pH 7.0, 25 °C, 0.1 M K-phosphate, 1 mM EDTA; non- or uncompetitive vs GSSG.
For `O=C(NCCN1CCOCC1)c1cc(/C=C/c2ccc([N+](=O)[O-])o2)nc2ccccc12`, the Ki is 75 µM.
Regarding `O=C(NCCCO)c1cc(/C=C/c2ccc([N+](=O)[O-])o2)nc2ccccc12`, the Ki was determined as 50 µM.
For `O=C(NCCCN1CCOCC1)c1cc(/C=C/c2ccc([N+](=O)[O-])o2)nc2ccccc12`, the Ki turned out to be 35 µM.
Consider `NCCCNC(=O)c1cc(/C=C/c2ccc([N+](=O)[O-])o2)nc2ccccc12`, for which the Ki was found to be 5 µM.
With `O=C(O)c1cc(/C=C/c2ccc([N+](=O)[O-])o2)nc2ccccc12`, the Ki turned out to be 9 µM.
The same measure, in the same setting: as for `NC(=O)c1cc(/C=C/c2ccc([N+](=O)[O-])o2)nc2ccccc12`, the figure is 25 µM.

For a further assay, the target named is Human erythrocyte glutathione reductase (HGR) (Homo sapiens, UniProt P00390). Description: enzyme kinetics, inhibition of GSSG reduction. The note with it: read-out: Ki (μM) / HGR ^b; 100 μM NADPH, varied GSSG, pH 7.0, 25 °C. The text has this:
enzyme kinetics, inhibition of GSSG reduction on Human erythrocyte glutathione reductase (HGR)
With `O=C(O)c1cc(/C=C/c2ccc([N+](=O)[O-])o2)nc2ccccc12`, the Ki was 3.5 µM.
